Assay results from patent publication US6642031B2, “Microorganisms with ability to degrade indole and enzymes therefrom” (Genencor International, Inc., priority 1995, dated 2003).

System: indole oxidase
Test: Cell-free oxygen uptake in WW2 indole-induced cell extract
Assay type: biochemical, Pseudomonas putida
Details: colour of the reaction, substrate 0.3 mM, 1 mM NADH

Row | Structure (SMILES) | Color
1 | Clc1ccc2cc[nH]c2c1 [6-Cl-Indole] | pink
2 | Clc1ccc2[nH]ccc2c1 [5-Cl-Indole] | blue
